US20200024330A1 (published 2020)

How the values were obtained:
Assay in all cases: cell-based or functional assay
[1] = biological target: HIV-1 Env of isolate MG RM-A-002 (HIV-1)
[2] = biological target: HIV-1 Env of isolate MG RM-A-004 (pseudovirus) (HIV-1)
[3] = biological target: HIV-1 Env of isolate MG RM-C-001 (HIV-1)
[4] = biological target: HIV-1 Env of isolate MG RM-C-004 (HIV-1)
[5] = biological target: HIV-1 Env of isolate MG RM-C-013 (HIV-1)
[6] = biological target: HIV-1 Env of isolate MG RM-C-007 (HIV-1)
[7] = biological target: HIV-1 Env of isolate MG RM-C-012 (HIV-1)
[8] = biological target: HIV-1 Env of isolate MG RM-C-008 (HIV-1)
[9] = biological target: HIV-1 Env of isolate MG RM-C-005 (HIV-1)
[10] = biological target: HIV-1 Env of isolate MG RM-C-002 (HIV-1)
[11] = biological target: HIV-1 93IN905 envelope protein (Env) on pseudotyped virus (HIV-1 isolate 93IN905)
[12] = biological target: HIV-1 94UG103 envelope protein (Env) on pseudotyped virus (HIV-1 isolate 94UG103)
[13] = biological target: HIV-1 92BR020 envelope protein (Env) on pseudotyped virus (HIV-1 isolate 92BR020)
[14] = biological target: HIV-1 NL43 envelope protein (Env) on pseudotyped virus (HIV-1 NL43)
[15] = biological target: HIV-1 IAVI_C22 envelope protein (Env) on pseudotyped virus (HIV-1 isolate IAVI C22)
[16] = biological target: HIV-1 92TH021 envelope protein (Env) on pseudotyped virus (HIV-1 isolate 92TH021)
[17] = biological target: HIV-1 92BR020 envelope protein (Env) on pseudovirus (HIV-1)
[18] = biological target: HIV-1 IAVI-C3 envelope protein (Env) on pseudovirus (HIV-1)
[19] = biological target: HIV-1 IAVI-C22 envelope protein (Env) on pseudovirus (HIV-1)
[20] = biological target: HIV-1 APV-17 envelope protein (Env) on pseudovirus (HIV-1)
[21] = biological target: HIV-1 92UG024 envelope protein (Env) on pseudovirus (HIV-1)
[22] = biological target: HIV-1 93UG077 envelope protein (Env) on pseudovirus (HIV-1)
[23] = biological target: HIV-1 94UG103 envelope protein (Env) on pseudovirus (HIV-1)
[24] = biological target: HIV-1 APV-13 envelope protein (Env) on pseudovirus (HIV-1)
[25] = biological target: HIV-1 CMU02 envelope protein (Env) on pseudovirus (HIV-1)
[26] = biological target: HIV-1 92UG005 envelope protein (Env) on pseudovirus (HIV-1)
[27] = biological target: HIV-1 93IN905 envelope protein (Env) on pseudovirus (HIV-1)
[28] = biological target: HIV-1 92TH021 envelope protein (Env) on pseudovirus (HIV-1)
[29] = biological target: aMLV envelope protein on pseudovirus
[30] = biological target: HIV-1 92RW020 envelope protein (Env) on pseudovirus (HIV-1)
[31] = biological target: HIV-1 NL43 envelope protein (Env) on pseudovirus (HIV-1)
[32] = biological target: HIV-1 IAVI-C18 envelope protein (Env) on pseudovirus (HIV-1)
[33] = biological target: HIV-1 Env of isolate 92BR020 (HIV-1)
[34] = biological target: HIV-1 Env of isolate MGRM-C-026 (HIV-1)
[35] = biological target: HIV-1 Env of isolate 94UG103 (HIV-1)

B1: 5114_A19 (PGT-128) (antibody, V domains shown)
VH: QPQLQESGPTLVEASETLSLTCAVSGDSTAACNSFWGWVRQPPGKGLEWVGSLSHCASYWNRGWTYHNPSLKSRLTLALDTPKNLVFLKLNSVTAADTATYYCARFGGEVLRYTDWPKPAWVDLWGRGTLVTVSS
VL: QSALTQPPSASGSPGQSITISCTGTSNNFVSWYQQHAGKAPKLVIYDVNKRPSGVPDRFSGSKSGNTASLTVSGLQTDDEAVYYCGSLVGNWDVIFGGGTKLTVL
[1]
  neutralization IC50: 0.149 µg/mL

B2: 4993_K13 (PGT-141) (antibody, V domains shown)
VH: QVQLVQSGPEVKKPGSSVKVSCKASGNTFSKYDVHWVRQATGQGLEWVGWMSHEGDKTESAQRFKGRVTFTRDTSASTAYMELRGLTSDDTAIYYCTRGSKHRLRDYVLYDDYGLINYQEWNDYLEFLDVWGHGTAVTVSS
VL: DTVVTQSPLSLPVTPGEAASMSCSSTQSLRHSNGANYLAWYQHKPGQSPRLLIRLGSQRASGVPDRFSGSGSGTHFTLKISRVEAEDAAIYYCMQGLNRPWTFGKGTKLEIK
[2]
  IC50 (µg/mL), pseudovirus neutralization: 0.007 µg/mL

B3: PGT-143 (antibody, V domains shown)
VH: B2 VH with V5E, P9A
VL: B2 VL with S24T, A85P
[3]
  neutralization IC50: > 50 µg/mL
[4]
  neutralization IC50: > 50 µg/mL
[5]
  neutralization IC50: > 50 µg/mL
[6]
  neutralization IC50: > 50 µg/mL
[7]
  neutralization IC50: > 50 µg/mL
[8]
  neutralization IC50: > 50 µg/mL

B4: PGT-144 (antibody, V domains shown)
VH: B2 VH with P9A, S30R, T69S, T74N, M81I, R98G, Y118Q
VL: B2 VL with P12S, S24T, E86D
[9]
  neutralization IC50: > 50 µg/mL
[3]
  neutralization IC50: > 50 µg/mL
[4]
  neutralization IC50: > 50 µg/mL
[5]
  neutralization IC50: > 50 µg/mL
[6]
  neutralization IC50: > 50 µg/mL
[10]
  neutralization IC50: > 50 µg/mL
[7]
  neutralization IC50: > 50 µg/mL
[8]
  neutralization IC50: > 50 µg/mL

B5: 4980_N08 (PGT-143) (antibody, V domains shown)
VH: B2 VH with V5E, P9A
VL: B2 VL with S24T, A85P
[2]
  IC50 (µg/mL), pseudovirus neutralization: 0.007 µg/mL

B6: PGT-141 (antibody, V domains shown)
VH: B2 VH
VL: B2 VL
[9]
  neutralization IC50: 8.33 µg/mL
[3]
  neutralization IC50: > 50 µg/mL
[4]
  neutralization IC50: > 50 µg/mL
[5]
  neutralization IC50: > 50 µg/mL
[6]
  neutralization IC50: > 50 µg/mL
[7]
  neutralization IC50: > 50 µg/mL
[8]
  neutralization IC50: > 50 µg/mL

B7: 1456_P20 (PG20) (antibody, V domains shown)
VH: QVRLVQSGPEVKKPGSSVTVSCQASGGTFSSYAFTWVRQAPGQGLEWLGMVTPIFGEAKYSQRFEGRVTITADESTSTTSIELRGLTSEDTAIYYCARDRRAVPIATDNWLDPWGQGTLVTVSS
VL: DIQLTQSPSSLSASVGDRVSITCRASQTINNYLNWYQQTPGKAPKLLIYGASNLQNGVPSRFSGSGSGTDFTLTISSLQPEDFATYYCQQSFSTPRTFGQGTRLDIKR
[11]
  IC50, pseudovirus neutralization, 1 hour Virus/Ab Incubation: > 50 µg/mL
  IC50, pseudovirus neutralization, 18 hour Virus/Ab Incubation: 3.84 µg/mL
[12]
  IC50, pseudovirus neutralization, 1 hour Virus/Ab Incubation: > 50 µg/mL
  IC50, pseudovirus neutralization, 18 hour Virus/Ab Incubation: > 50 µg/mL
[13]
  IC50, pseudovirus neutralization, 1 hour Virus/Ab Incubation: > 50 µg/mL
  IC50, pseudovirus neutralization, 18 hour Virus/Ab Incubation: > 50 µg/mL
[14]
  IC50, pseudovirus neutralization, 1 hour Virus/Ab Incubation: 0.2 µg/mL
  IC50, pseudovirus neutralization, 18 hour Virus/Ab Incubation: 0.05 µg/mL
[15]
  IC50, pseudovirus neutralization, 1 hour Virus/Ab Incubation: > 50 µg/mL
  IC50, pseudovirus neutralization, 18 hour Virus/Ab Incubation: > 50 µg/mL
[16]
  IC50, pseudovirus neutralization, 1 hour Virus/Ab Incubation: > 50 µg/mL
  IC50, pseudovirus neutralization, 18 hour Virus/Ab Incubation: > 50 µg/mL

B8: 1456_P20 (PG20) (antibody, V domains shown)
VH: B7 VH
VL: B7 VL
[17]
  neutralization IC50: > 50 µg/mL
[18]
  neutralization IC50: > 50 µg/mL
[19]
  neutralization IC50: > 50 µg/mL
[20]
  neutralization IC50: > 50 µg/mL
[21]
  neutralization IC50: > 50 µg/mL
[22]
  neutralization IC50: > 50 µg/mL
[23]
  neutralization IC50: > 50 µg/mL
[24]
  neutralization IC50: > 50 µg/mL
[25]
  neutralization IC50: > 50 µg/mL
[26]
  neutralization IC50: > 50 µg/mL
[27]
  neutralization IC50: > 50 µg/mL
[28]
  neutralization IC50: > 50 µg/mL
[29]
  neutralization IC50: > 50 µg/mL
[30]
  neutralization IC50: > 50 µg/mL
[31]
  neutralization IC50: 0.188 µg/mL
[32]
  neutralization IC50: > 50 µg/mL

B9: 5147_N06 (PGT-130) (antibody, V domains shown)
VH: QVQLQESGPGLVKPAETLSLTCSVSGESINTGHYYWGWVRQVPGKGLEWIGHIHYTTAVLHNPSLKSRLTIKIYTLRNQITLRLSNVTAADTAVYHCVRSGGDILYYYEWQKPHWFSPWGPGIHVTVSS
VL: QSALTQPPSASGSLGQSVTISCNGTSSDIGGWNFVSWYQQFPGRAPRLIIFEVNKRPSGVPGRFSGSKSGNSASLTVSGLQSDDEGQYFCSSLFGRWDVVFGGGTKLTVL
[1]
  neutralization IC50: 0.01 µg/mL

B10: PGT-122 (antibody, V domains shown)
VH: QVHLQESGPGLVKPSETLSLTCNVSGTLVRDNYWSWIRQPLGKQPEWIGYVHDSGDTNYNPSLKSRVHLSLDKSKNLVSLRLTGVTAADSAIYYCATTKHGRRIYGVVAFKEWFTYFYMDVWGKGTSVTVSS
VL: TFVSVAPGQTARITCGEESLGSRSVIWYQQRPGQAPSLIIYNNNDRPSGIPDRFSGSPGSTFGTTATLTITSVEAGDEADYYCHIWDSRRPTNWVFGEGTTLIVL
[33]
  Primary Neutralization Index (B cell culture well 4877_D15): 5.4
[34]
  Primary Neutralization Index (B cell culture well 4877_D15): 37.5
[35]
  Primary Neutralization Index (B cell culture well 4877_D15): 1.3

Where a chain is given by its changes, count along the chain named.
